Pooled drug test results. Numbers come from NIAID ChemDB, via PubChem.

Shared fields: tests in culture; species: Candida albicans; measure: zone

An empty or dashed field is not shown. Conditions beyond the fields shown may differ between rows. Zones are inhibition diameters on agar.

| structure | strain | method | tested at | result |
|---|---|---|---|---|
| C[C@@H]1[C@@H](COCC(=O)O)C[C@@H](O[C@H]2[C@H](O)[C@@H](N(Cc3ccc(N(C)C)cc3)CC(O)C[N+](C)(C)C)[C@H](O[C@H]3[C@H](O)[C@@H](N(Cc4ccc(N(C)C)cc4)CC(O)C[N+](C)(C)C)[C@H](C)O[C@@H]3COCC(=O)O)O[C@@H]2COCC(=O)O)[C@H](N(Cc2ccc(N(C)C)cc2)CC(O)C[N+](C)(C)C)[C@H]1O | RCMB 05031 | agar diffusion | 1 mg/mL | 20.1 mm |
| CCOC(=O)CSc1nnc(C23CC4CC(CC(C4)C2)C3)n1-c1ccccc1 | IFO 0583 | agar diffusion | 200 µg/disc | 12 mm |
| C[C@@H]1[C@@H](COCC(=O)O)C[C@@H](O[C@H]2[C@H](O)[C@@H](N(Cc3ccccc3Cl)CC(O)C[N+](C)(C)C)[C@H](O[C@H]3[C@H](O)[C@@H](N(Cc4ccccc4Cl)CC(O)C[N+](C)(C)C)[C@H](C)O[C@@H]3COCC(=O)O)O[C@@H]2COCC(=O)O)[C@H](N(Cc2ccccc2Cl)CC(O)C[N+](C)(C)C)[C@H]1O | RCMB 05031 | agar diffusion | 1 mg/mL | 17.4 mm |
| Cc1nc2ccccc2n(CC(=O)NN2C(=O)CSC2c2ccccc2O)c1=O |  |  | 100 µg/mL | 14 mm |
| FC(F)(F)c1cc(CSc2nnc(C34CC5CC(CC(C5)C3)C4)n2-c2ccccc2)cc(C(F)(F)F)c1 | IFO 0583 | agar diffusion | 200 µg/disc | 13 mm |
| COc1ccc(C2SCC(=O)N2NC(=O)Cn2c(=O)c(C)nc3ccccc32)cc1OC |  |  | 100 µg/mL | 18 mm |
| CCC(C)CCCCCCCCCCC(=O)N[C@H]1C[C@@H](O)[C@@H](Sc2ccccc2)NC(=O)C2[C@@H](O)[C@@H](C)CN2C(=O)C(CO)NC(=O)C([C@H](O)C(O)c2ccc(O)cc2)NC(=O)NC(=O)[C@@H]2C[C@@H](O)CN2C(=O)[C@H]([C@@H](C)O)NC1=O | IV | agar | 5 mg/mL | 18 mm |
| C=CC(C)(C)c1cc(C2CC(=O)c3c(cc(O)c(CC=C(C)C)c3O)O2)c(O)cc1O | hemoculture isolate 1999 | agar diffusion / agar | 2 mg/mL | 14 mm |
| COc1ccc(C2SCC(=O)N2NC(=O)Cn2c(=O)c(C)nc3ccccc32)cc1 |  |  | 50 µg/mL | 11 mm |
| S=c1n(CN2CCN(Cc3ccccc3)CC2)nc(C23CC4CC(CC(C4)C2)C3)n1-c1ccccc1 | IFO 0583 | agar diffusion | 200 µg/disc | <10 mm |
| Cc1nc2ccccc2n(CC(=O)NN2C(=O)CSC2c2ccc([N+](=O)[O-])cc2)c1=O |  |  | 50 µg/mL | 12 mm |
| C[C@@H]1[C@@H](COCC(=O)O)C[C@@H](O[C@H]2[C@H](O)[C@@H](N(Cc3cccc(Br)c3)CC(O)C[N+](C)(C)C)[C@H](O[C@H]3[C@H](O)[C@@H](N(Cc4cccc(Br)c4)CC(O)C[N+](C)(C)C)[C@H](C)O[C@@H]3COCC(=O)O)O[C@@H]2COCC(=O)O)[C@H](N(Cc2cccc(Br)c2)CC(O)C[N+](C)(C)C)[C@H]1O | RCMB 05031 | agar diffusion | 1 mg/mL | 23.4 mm |
| CCC(C)CCCCCCCCCCC(=O)N[C@H]1C[C@@H](O)[C@@H](SCC(=O)OC)NC(=O)C2[C@@H](O)[C@@H](C)CN2C(=O)C(CO)NC(=O)C([C@H](O)C(SCC(=O)OC)c2ccc(O)cc2)NC(=O)NC(=O)[C@@H]2C[C@@H](O)CN2C(=O)[C@H]([C@@H](C)O)NC1=O | IV | agar | 2 mg/mL | 10 mm |
| Cc1nc2ccccc2n(CC(=O)NN2C(=O)CSC2c2ccccc2F)c1=O |  |  | 100 µg/mL | 14 mm |
| CCC(C)CCCCCCCCCCC(=O)N[C@H]1C[C@@H](O)[C@@H](SCC(=O)OC)NC(=O)C2[C@@H](O)[C@@H](C)CN2C(=O)C(CO)NC(=O)C([C@H](O)C(O)c2ccc(O)cc2)NC(=O)NC(=O)[C@@H]2C[C@@H](O)CN2C(=O)[C@H]([C@@H](C)O)NC1=O | IV | agar | 5 mg/mL | 26 mm |
| O=C(O)CSc1nnc(C23CC4CC(CC(C4)C2)C3)n1-c1ccccc1 | IFO 0583 | agar diffusion | 200 µg/disc | 12 mm |
| CCC(C)CCCCCCCCCCC(=O)N[C@H]1C[C@@H](O)[C@@H](N=[N+]=[N-])NC(=O)C2[C@@H](O)[C@@H](C)CN2C(=O)C(CO)NC(=O)C([C@H](O)C(N=[N+]=[N-])c2ccc(O)cc2)NC(=O)NC(=O)[C@@H]2C[C@@H](O)CN2C(=O)[C@H]([C@@H](C)O)NC1=O | IV | agar | 5 mg/mL | 25 mm |
| CCOC(=O)N1CCN(Cn2nc(C34CC5CC(CC(C5)C3)C4)n(-c3ccccc3)c2=S)CC1 | IFO 0583 | agar diffusion | 200 µg/disc | <10 mm |
| CCC(C)CCCCCCCCCCC(=O)N[C@H]1C[C@@H](O)[C@@H](OC)NC(=O)C2[C@@H](O)[C@@H](C)CN2C(=O)C(CO)NC(=O)C([C@H](O)C(O)c2ccc(O)cc2)NC(=O)NC(=O)[C@@H]2C[C@@H](O)CN2C(=O)[C@H]([C@@H](C)O)NC1=O | IV | agar | 5 mg/mL | 27 mm |
| Cc1ccc(C(C)C)c(O)c1 | CN | agar diffusion | 100 µg/mL | 6 mm |
| COc1cc(CN(CC(O)C[N+](C)(C)C)[C@@H]2[C@@H](O)[C@H](O[C@@H]3O[C@H](COCC(=O)O)[C@@H](O[C@@H]4C[C@H](COCC(=O)O)[C@@H](C)[C@H](O)[C@H]4N(Cc4ccc(O)c(OC)c4)CC(O)C[N+](C)(C)C)[C@H](O)[C@H]3N(Cc3ccc(O)c(OC)c3)CC(O)C[N+](C)(C)C)[C@@H](COCC(=O)O)O[C@H]2C)ccc1O | RCMB 05031 | agar diffusion | 1 mg/mL | 15 mm |
| CCC(C)CCCCCCCCCCC(=O)N[C@H]1C[C@@H](O)[C@@H](O)NC(=O)C2[C@@H](O)[C@@H](C)CN2C(=O)C(CO)NC(=O)C([C@H](O)C(O)c2ccc(O)cc2)NC(=O)NC(=O)[C@@H]2C[C@@H](O)CN2C(=O)[C@H]([C@@H](C)O)NC1=O | IV | agar | 1 mg/mL | 29 mm |